Measured values published in US20230141962A1 (published 2023).

B1: phage clone #13 (scFv)
scFv: QSVLTQPPSASGTPGQRVTISCSGSSSNIGSNYVYWYQQLPGTAPKLLIYRNNQRPSGVPDRFSGSKSGTSASLAISGLRSEDEADYYCAAWDDSLSGPNYVFGTGTKVTVLGSRGGGGSGGGGSGGGGSLEMAQVQLVQSGAEVKKPGSSVKVSCKASGGTFSSYAISWVRQAPGQGLEWMGWISGYNGNTNYAQKLQGRVTMTTDTSTSTAYMELRSLRSDDTAVYYCARTGWSKGEKVTTWGEWFYVDYWGQGTLVTVSSTSGQAGQ
B2: phage clone #19 (scFv)
scFv: QSALTQPASVSGSPGQSITISCTGTSSDVGGYNYVSWYQQHPGKVPKLMIYEVSNRPSGVSNRFSGSKSGNTASLTISGLQAEDEADYYCSSYTSGDTLVFGGGTKVTVLGSRGGGGSGGGGSGGGGSLEMAELQLVESGGGVVQPGRSPRLSCAASGFTFSNYPMHWVRQAPGKGLEWVAVISYDGNHKYYADSLEGRFSISRDNSKNTLYLQMNSLTAADTAVYYCARGGGMGGLDSWGQGTLVTVSSTSGQAGQ
B3: phage clone #20 (scFv)
scFv: SYVLTQPPSASGTPGQRVTISCSGSSSNIGSNTVNWYQQLPGTAPKLLIYSNNQRPSGVPDRFSASKSGTSASLAISGFQSEDEADYYCAAWDDSLDGYVFGTGTKVTVLGSRGGGGSGGGGSGGGGSLEMAEVQLVQSGAEVKKPGESLKISCKGSGYSFPSYWIGWVRQMPGKGLEWMGIIYPGDSDTRYSPSFQGQVTISADKSISTAYLQWSSLKASDTAMYYCARGSYTYMGGSYDYWGQGTLVTVSSTSGQAGQ
B4: phage clone #30 (scFv)
scFv: QSALTQPPSASGSPGQSVTISCTGTSSDVGGYDYVSWYQQHPGKAPKLMIYEVSKRPSGVSNRFSGSKSGNTASLTISGLQAEDEADYYCSSYTSSSTFPYVFGTGTKVTVLGSRGGGGSGGGGSGGGGSLEMAEVQLVESGGGLEQPGGSLRLSCAASGFTFSSYAMSWVRQAPGKGLEWVSAISASGNSTFYADSVKGRFTISRDNSKHTLDLQMNSLRADDTAVYYCARNSDVWGQGTLVTVSSTSGQAGQ
B5: phage clone #09 (scFv)
scFv: NFMLTQPHSVSESPGKTVSISCTGSSGSIASNYVQWYQQRPGSAPTTVIYEDKERPSGVPNRFSGSIDRSSNSASLTISGLKTEDEADYYCQSYDDGNVVFGGGTKLTVLGSRGGGGSGGGGSGGGGSLEMAEVQLVESGAEVKKPGASVKVSCKASGYTFTSYGISWVRQAPGQGLEWMGWISAYNGNTNYAQKFQDRVTLTTDTSTNTAYMLLRSLRSDDTAVYYCARTWYSYHYDIWGQGTLVTVSSTSGQAGQ
B6: phage clone #15 (scFv)
scFv: QSVLTQPPSVSEAPRQRVTISCSGSSSNIGNNAVNWYQQLPGKAPKLLIYFNDVQSSGVSDRFSGSKSGTSASLAISGLQSEDEADYYCAAWDDSLNAVLFGGGTKLTVLGSRGGGGSGGGGSGGGGSLEMAEVQLVQSGAEVKKPGASVKVSCKASGYTFTGYYMHWVRQAPGQGLEWMGRINPNSGGTDYARKFRGRVTMTRDTSISTAYMELSRLTSDDTAMYYCARGYGDDWGQGTLVTVSSTSGQAGQ

Each binder was assayed against T1, SARS-CoV-2 spike protein S1 subunit (WIV4) (SARS-CoV-2 (isolate 2019-nCoV, WIV4), UniProt P0DTC2 16-685) (assay: phage ELISA, specificity panel (FIG. 2)).
T1 construct: also called SARS-CoV-2 S1 (WIV4); S1-HIS
B1: binds.
B2: binds.
B3: binds.
B4: binds.

The binders below were run against T1, SARS-CoV-2 spike protein S1 subunit … (assay: phage ELISA on coated SARS-CoV-2 S1).
B5: binds.
B6: binds.
